Experimental data published in patent US20250382354A1 (INSTITUTE FOR RESEARCH IN BIOMEDICINE IRB, published 2025).

Assays:
CRCoV-240/05 HR2 peptide = target: T1, CRCoV-240/05 HR2 peptide (CRCoV-240/05); assay: peptide ELISA
T1 construct: domain: HR2 peptide

MERS S ectodomain = MERS S ectodomain (MERS); assay: ELISA on coated S
CRCoV-240/05 FP peptide = target: T2, CRCoV-240/05 FP peptide (CRCoV-240/05); assay: peptide ELISA
T2 construct: domain: FP peptide

Row | Binder | EC50 (CRCoV-240/05 HR2 peptide) | EC50 (MERS S ectodomain) | EC50 (CRCoV-240/05 FP peptide)
1 | hr2.012 (antibody, V domains shown) VH: QVQLVQSGAEVKKPGASVKVSCKASGYTFTSHYIHWVRQAPGQGLEWMGIIKPSGGNTIYAQTFQGRVTMTRDTSTSTVYMELRSLTSDDTAVYYCARDQDHGLQRWGQGTLVTVSS VL: QSVLTQPPSVSAPPGQKVTISCSGSSSNIGNNFVSWYQQLPGTAPKLLIYDNIERPSGIPDRFSGSRSGTSATLGITGLQTGDEADYYCGTWDTSLGAWVFGGGTKVTVL | 0.0273 µg/mL | 0.303 µg/mL | 
2 | hr2.013 (antibody, V domains shown) VH: QVQLVQSGAEVKKPGASVKISCKASGYTFTNNYMNWVRQAPGQGLEWMGIIKPSSGSTIYAHKFQGRVTMTRDTSTSTVYMEVRSLTSEDTAVYYCARDQDHGLQNWGQGTLVTVSS VL: QSVLTQPPSVSAASGQKVTIYCSGSSSNIASNFVSWYQQFPGTAPKLLIYDNNQRPSGIPDRFSGSRSGTSATLGITGLQTGDEADYYCGTWDTSLGAWVFGGGTKLTVL | 0.0573 µg/mL | 0.168 µg/mL | 
3 | hr2.015 (antibody, V domains shown) VH: QVQLVQSGAEVKKPGASVKVSCKASGYTFSSYYVNWVRQAPGQGLEWLGIINRSGSSTIYAQKFQGRVTMTRDTSTSTVYLELSSLRSEDTAVYYCARDQDHALHWGQGTLVTVSS VL: QSVLTQPPSVSAAPGQKVTISCSGSSSNIGSNYVSWYQQLPGTAPKLLIYDNSERPSGIPDRFSGSRSGTSATLGITGLQTGDEADYYCGTWDTSLSAWVFGGGTKLTVL | 0.0575 µg/mL | 0.686 µg/mL | 
4 | hr2.021 (antibody, V domains shown) VH: QVQLVQSGAEVKKPGASVKVSCKASEAIFSGSYLHWVRQAPGQGLEWMGIITPSGDKTFYAQRFQGRLTMTRDTSTNTLHMHLSGLNSEDTAMYYCARQADKGGWDYWGQGTLVTVSS VL: EIVLTQSPGTLSLSPGERATLSCRASQSVTSNYVAWYQQKPGQAPRLLIYGASTRATGIPDRFSGGGSGTDFTLTITRLEPEDFAVYYCQQYGSSPPTFTFGPGTKVDIK | 0.0245 µg/mL | 0.0584 µg/mL | 
5 | hr2.024 (antibody, V domains shown) VH: QVQLVQSGAEVKKPGASVKVSCKASEDIFTDSYLHWVRQAPGQGLEWMGIITPSGDKTFYAQQFQGRLTMTRDPSTNTLYMFLSGLRSDDTAMYFCARQAEKGGWDYWGHGTLVTVSS VL: EIVLTQSPGTLSLSPGQRATLSCRSSQTITSNYLAWYQQRPGQAPRLLIYGASIRATGIPDRFSGSGSGTDFTLTISRLEPEDFAVYYCQQYGSSPPTFIFGPGTKVDIK | 0.0549 µg/mL | 0.0802 µg/mL | 
6 | hr2.086 (antibody, V domains shown) VH: EVQLLESGGGLVQPGGYLRLSCAASGFTFSSYAMSWVRQAPGKGLEWVSVISGGGGSAYYADSVKGRFTISRDNSKNTLYLQMNSLRAEDTAVYYCAKIGMILVFDYWGQGTLVTVSS VL: EIVLTQSPGTLSLSPGERATLSCRASQSVSNNYLAWYQQKPGQAPRLLISGASSRATGIPDRFSGSGSGTDFTLTISRLEPEDFAVYYCQQYGSSPPTFGQGTKVEIK | 0.246 µg/mL | 1.16 µg/mL | 
7 | fp.010 (antibody, V domains shown) VH: EVQLLESGGGLVQPGGSLRLSCAASGFTFSTYAMNWVRQAPGKGLEWVSAISSSGLSTQYADSVRGRFTISRDTSKNTLYLHMNSLRAGDTAVYYCAKVEYSGYDPRGPFDSWGQGTLVTVSS VL: DIQMTQSPSTLSASVGDRVTITCRASQSISGWLAWYQQKPGRAPKLLIYKASSLERGVPSRFSGSGSGTEFTLTISSLQPDDFATYYCQEYSSYPLCTFGQGTKLEIK |  | 1.96 µg/mL | 0.0406 µg/mL
8 | hr2.094 (antibody, V domains shown) VH: EVQLVESGGGLVQPGGSLRLSCAASGFTFSTFWMTWVRQAPGKGLEWVANIKSDGSEKYYVDSVKGRFTISRDNAKNSLYLQMNSLRAEDTAVYYCATWFGLHWGQGTLVTVSS VL: DIVMTQSPDSLAVSLGERASINCKSSQTVLYSSNNKNYLAWYQQKPGQPPKLLIHWASTRDSGVPDRFSGSGSGTDFTLTISSLQAEDVAVYYCQQYHRIPWTFGRGTKVEIK | 0.0141 µg/mL | 0.124 µg/mL | 
9 | hr2.020 (antibody, V domains shown) VH: EVQLVQSGAEVKKPGESLKISCKGSGYRFASHWIGWVRQMPGKGLQWMGIIYPGDSDTKYSPSFQGQVTISADKSINTVYLHWTSLKASDTAVYYCARRPPHLDGGDSPIRFDHWGQGTLVTVSS VL: QSVLTQPPSASGTPGQRVTISCSGSRSNIGSNDVYWYQQFPGTAPKLLIYRNNQRPSGVPDRFSGSKSGTSASLAISGLRSEDEADYYCATWDDRLTGVFGGGTKLTVV | 0.0409 µg/mL |  | 
10 | hr2.027 (antibody, V domains shown) VH: EVQLVQSGAEVKKPGESLKISCKGSGYSFANYWIAWVRLMPGKGLEWMGFIFPGDSDTRYSPSFQGQVTISADKSITTAYLHWSSLKASDTAIYFCARRRGNSGNHDPYGMDVWGHGTTVTVSS VL: not shown | 0.0413 µg/mL |  | 
11 | fp.001 (antibody, V domains shown) VH: VQLVESGGGVVQPGRPLRLSCSGSGFIFSNYAMHWVRQAPGKGLEWVAIISFDARNKRYADSVEGRFTISRDNSKNILYLQMNSLRLEDSAVYFCARDLFLSDYDNGVYDPTRGGFDYWGQGTLVTVSS VL: EIVMTQSPATLSLSPGERATLSCRASQSVNNRLAWYQQKLGQPPRLLISGASTRATGIPARFTGSGSGTEFTLTISSLQSEDFAVYYCQQYHDWPLLSFGGGTKVEIK |  | 0.0433 µg/mL | 0.0319 µg/mL
12 | fp.002 (antibody, V domains shown) VH: VQLVESGGGVVQPGTSLRLSCAGSGFNFDNYAIHWVRQAPGQGLEWVAIISYEARNKKYAGSVTGRFSISRDNSKSMVYLQMDSLRGEDTAVYYCARDLFLSDYDRSGYDPTRGGFDLWGQGTLVTVSS VL: EIVMTQSPATLSVSPGERATLSCRASQSVSSSLAWYQHKLGQAPRLLIYGASTRATGIPGRFSGSGSGTEFTLTISSLQSEDVAIYYCQQYGDWPLVTFGGGTKVEIK |  | 0.0508 µg/mL | 0.0158 µg/mL
13 | fp.008 (antibody, V domains shown) VH: VQLVESGGGVVQPGRSLRLSCRASGFRFNNYAMHWVRQAPGKGLEWVAIISYEARNEKYAASVKGRFSISRDNAKNTLYLQMNSLRPEDTAIYYCARDVFLSDYDQSGYDVTRGGFDYWGQGTLVTVSS VL: EIVMTQSPATLSVSPGESATLSCRASQSVSSSLAWYQHKFGQAPRLLIYGASTRATGIPDRFSGSGSGMEFTLTISSLQSEDVAIYYCQQYGDWPLVTFGGGTKVEIK |  | 0.0592 µg/mL | 0.026 µg/mL
14 | fp.003 (antibody, V domains shown) VH: VQLVESGGGVVQPGTSLRLSCTASGFSFSNYAMHWVRQAPGKGLEWVAIISFDTRNKEFADSVKGRFSISRDNSKNSLNLQMNSLRPEDTGVYYCARDLFLSDYDSRGYEPSRGGFDYWGQGTLVTVSS VL: EIVMTQSPATLSVSPGERATLSCRASQSVSSSLAWYQQKLGQPPRLLIYGASTRATGIPARFSGSGSGTEFTLTISSLKSEDSAVYYCQQYNDWPLLSFGGGTKVEIK |  | 0.0665 µg/mL | 0.0266 µg/mL
15 | fp.005 (antibody, V domains shown) VH: VQLVESGGGVVQPGNSLRLSCAASGFRFNNYAMHWVRQAPGKGLEWVAIISYEARNEKYADSVKGRFSISRDNAKNTLYLQMNSLRADDTGVYYCARDLFLSDYDTSGYDRTRGGFDYWGQGALVTVSS VL: EIVMTQSPATLSVSPGERATLSCRASQSVSNGLAWYQHRFGQPPRLLIYGASTRATGIPTRFSGSGSGTEFTLTISSLQSEDFAVYYCQQYDDWPLITFGGGTKVEIK |  | 0.0513 µg/mL | 0.0259 µg/mL
16 | hr2.017 (antibody, V domains shown) VH: EVQLVESGGGLVQPGGSLRLSCAVSGFAFSSSWMHWIRQAPGRGLVWVSRINRDGSTTDYADSVKGRFTISRDNAKATLYLQMNSLRAEDTAVYYCATMGFDYWGQGALVTVSS VL: DIVMTQSPDSLAVSLGERATINCKSSQNVLYSSNNKNHLSWYQQKPGQPPKLLIYWASTRKSGVPDRFSGSGSGTDFTLTINSLQAEDVAVYYCQQYFSTPNTFGQGTKLEIK | 0.018 µg/mL |  | 
17 | fp.004 (antibody, V domains shown) VH: VQLVESGGGVVQPGTSLRLSCVASGFTFSNYAMHWVRQAPGKGLEWVAIISFDTRNTASAASVKGRFNISRDNSKNSLYLQMNSLRPEDTGVYYCARDLFLSDYDSRGYDPITGGFDCWGQGTLVTVSS VL: EIVMTQSPAALSVSPGEGATLSCRASQSVGSRLAWYQQKLGRPPRLLIYGASTRATGIPARFSGSGSGTEFTLTISSLQSEDFAVYYCQQYNDWPLLTFGGGTKVKIK |  | 0.0649 µg/mL | 0.0262 µg/mL
18 | hr2.090 (antibody, V domains shown) VH: EVQLLESGGGLVQPGGSLRLSCAASGVTFSRYAMSWVRQAPGKGLEWVSTISGGGGGTYYADSVKGRFTISRDNSKNTLYLQMNSLRAEDTAVYYCATLLTVPGPYYFEYWGQGTLVTVSS VL: EIVLTQSPGTLSLSPGERATLSCRASQSVSSSYLAWYQQKPGQAPRLLIYGASSRATGIPDRFSGSGSGTDFTLTISRLESEDFAVYYCQHSRFTFGPGTRVDIK | 0.658 µg/mL |  | 
19 | hr2.019 (antibody, V domains shown) VH: EVQLVESGGGLVKPGGSLRLSCAASGSSVIDVWMNWVRQAPGKGLEWVGRIKTKASGAATDYGAPVKGRFTISRDDSKNLSYLQMNSLRAEDTGIYYCTTSPLPNFDYWGRGTLVTVSS VL: DIVMTQSPDFLAVSLGETATINCRSSQSVFYFANNKNYLAWYQQKPGQPPKLLIYWASKRESGVPDRFSGSGSGTDFTLTISSLQAEDVATYYCQQYSSPAITFGPGTKVDIK |  | 0.506 µg/mL | 
